A mixed list of measured activities; the numbers were collected in NIAID ChemDB.

Common to all: growth or infection tests; agent: Mycobacterium avium intracellulare

ECn: concentration that inhibits the pathogen or its effect by n%.

| structure | strain | read by | read-out | value |
|---|---|---|---|---|
| CC1COc2c(C3(N)CC3)c(F)cc3c(=O)c(C(=O)O)cn1c23 | 31 strains | - | MIC90 | >100 µg/mL |
| Cc1c(F)c(N2CCNC(C)C2)cc2c1c(=O)c(C(=O)O)cn2C1CC1 | - | - | MIC90 | 12.5 µg/mL |
| CCCCCCCC/C=C/CCCCCCCCC(=O)Oc1c(OC)cc2ccnc3c2c1N(C)C=C3 | - | - | EC50 | 0.2 µg/mL |
| C[C@@H]1CN(c2c(F)c(N)c3c(=O)c(C(=O)O)cn(C4CC4)c3c2F)C[C@H](C)N1 | 292 strains | - | Median MIC90 | 2 µg/mL |
| C[C@@H]1CN(c2c(F)c(N)c3c(=O)c(C(=O)O)cn(C4CC4)c3c2F)C[C@H](C)N1 | ATCC 13950 | - | MBC | 0.6 µg/mL |
| CCCCCCCCCCCCCCO/N=C1\[C@H](C)CC(C)(O)[C@H](O[C@@H]2O[C@H](C)C[C@H](N(C)C)[C@H]2O)[C@@H](C)[C@H](OC2C[C@@](C)(OC)[C@@H](O)[C@H](C)O2)[C@@H](C)C(=O)O[C@H](CC)[C@@](C)(O)[C@H](O)[C@H]1C | 20066 (clarithromycin-susceptible) | - | MIC | >50 µg/mL |
| OCNC(=S)c1cnccn1 | ATCC 13950 | - | MBC | 100 µg/mL |
| CO[C@H]1/C=C/O[C@@]2(C)Oc3c(C)c(=O)c4c(O)c(c5oc6cc(N7CCCC7)ccc6nc5c4c3C2=O)NC(=O)/C(C)=C\C=C\[C@H](C)[C@H](O)[C@@H](C)[C@@H](O)[C@@H](C)[C@H](OC(C)=O)[C@@H]1C | - | - | MIC50 | ≤0.3 µg/mL |
| C[C@@H]1CN(c2c(F)c(N)c3c(=O)c(C(=O)O)cn(C4CC4)c3c2F)C[C@H](C)N1 | 17 strains | - | MIC90 | 6.25 µg/mL |
| COc1cc2ccnc3c2c(c1OC(=O)c1ccc(OC(F)(F)F)cc1)N(C)C=C3 | - | - | EC50 | 1 µg/mL |
| CC1COc2c(N3CCN(C)CC3)c(F)cc3c(=O)c(C(=O)O)cn1c23 | 31 strains | - | MIC50 | 25 µg/mL |
| CO[C@H]1/C=C/O[C@@]2(C)Oc3c(C)c(O)c4c(O)c(c5c(c4c3C2=O)NC2(CCN(CC(C)C)CC2)N=5)=NC(=O)/C(C)=C\C=C\[C@H](C)[C@H](O)[C@@H](C)[C@@H](O)[C@@H](C)[C@H](OC(C)=O)[C@@H]1C | N-499 (HIV-) | - | MIC | 0.1 µg/mL |
| CCCCC(=O)O[C@H]1[C@H](C)OC(O[C@H]2[C@H](C)[C@@H](O[C@@H]3O[C@H](C)C[C@H](N(C)C)[C@H]3O)C(C)(O)C[C@@H](C)/C(=N\OCCCOc3ccccc3)[C@H](C)[C@@H](O)[C@](C)(O)[C@@H](CC)OC(=O)[C@@H]2C)C[C@@]1(C)OC | 20066 (clarithromycin-susceptible) | - | MIC | 0.78 µg/mL |
| CC[C@H]1OC(=O)[C@H](C)[C@@H](O[C@H]2C[C@@](C)(OC)[C@@H](OC(C)=O)[C@H](C)O2)[C@H](C)[C@@H](O[C@@H]2O[C@H](C)C[C@H](N(C)C)[C@H]2O)C(C)(O)C[C@@H](C)/C(=N\OCCCC2CCCCC2)[C@H](C)[C@@H](O)[C@]1(C)O | 12 strains | - | MIC50 | 1.56 µg/mL |
| CCN(CC)C(=O)Oc1c(OC)cc2ccnc3c2c1N(C)C=C3 | - | - | EC50 | >15 µg/mL |
| C=C(CCC=C(C)C)[C@@H]1CC[C@@]2(C)O[C@H]2C1 | ATCC 19709 | - | MBC | >20 µg/mL |
| CO[C@H]1/C=C/O[C@@]2(C)Oc3c(C)c(O)c4c(O)c(c(/C=N/N5CCN(C6CCCC6)CC5)c(O)c4c3C2=O)NC(=O)/C(C)=C\C=C\[C@H](C)[C@H](O)[C@@H](C)[C@@H](O)[C@@H](C)[C@H](OC(C)=O)[C@@H]1C | 953 | - | MIC | 2 µg/mL |
| CC1COc2c(N3CCN(C)CC3)c(F)cc3c(=O)c(C(=O)O)cn1c23 | N-260 | - | MIC50 | 50 µg/mL |
| NC(=O)c1cc[n+](CCCC[n+]2ccccc2/C=N/O)cc1.[Br-].[Br-] | - | resazurin | EC50 | >20 µg/mL |
| CO[C@H]1/C=C/O[C@@]2(C)Oc3c(C)c(O)c4c(O)c(c(/C=N/N5CCN(C6CCCC6)CC5)c(O)c4c3C2=O)NC(=O)/C(C)=C\C=C\[C@H](C)[C@H](O)[C@@H](C)[C@@H](O)[C@@H](C)[C@H](OC(C)=O)[C@@H]1C | 17 strains | - | MIC90 | 25 µg/mL |
| COc1cc(NC(C)CCCN)c2nc(C(C)(C)C)ccc2c1Oc1cccc(C(F)(F)F)c1 | - | - | EC50 | 1.5 µg/mL |
| CC[C@H](C)C(=O)Oc1ccc([C@H]2O[C@@H]2C)cc1 | - | - | EC50 | 2.78 µg/mL |
| CCCCCc1ccc(C(=O)Oc2c(OC)cc3ccnc4c3c2N(C)C=C4)cc1 | - | - | EC50 | 1 µg/mL |
| C[C@@H]1CN(c2c(F)c(N)c3c(=O)c(C(=O)O)cn(C4CC4)c3c2F)C[C@H](C)N1 | 31 strains | - | MIC50 | 6.25 µg/mL |
| COc1c(N2CCNC(C)C2)c(F)cc2c(=O)c(C(=O)O)cn(C3CC3)c12 | 17 strains | - | MIC90 | 3.13 µg/mL |
| CC[C@H]1OC(=O)[C@H](C)[C@@H](O[C@H]2C[C@@](C)(OC)[C@@H](O)[C@H](C)O2)[C@H](C)[C@@H](O[C@@H]2O[C@H](C)C[C@H](N(C)C)[C@H]2O)[C@](C)(OC)C[C@@H](C)C(=O)[C@H](C)[C@@H](O)[C@]1(C)O | N-260 | - | MBC | 16 µg/mL |
| O/N=C/c1ccc[n+](Cc2cc(C[n+]3cccc(/C=N/O)c3)on2)c1.[Br-].[Br-] | - | resazurin | EC50 | >20 µg/mL |
| NC(=S)c1cnccn1 | ATCC 13950 | - | MBC | 100 µg/mL |
| O/N=C/c1cccc[n+]1Cc1ccc(C[n+]2ccccc2/C=N/O)s1.[Cl-].[Cl-] | - | resazurin | EC50 | >20 µg/mL |
| COc1c(O)c2c(=O)cc(OC)c3c4c(OC)cc(=O)c5c(O)c(OC)c6c(c(c1CC(C)(O)C6C(C)=O)c23)c54 | - | - | EC50 | 2.5 µg/mL |
| C[C@H]1COc2c(N3CCN(C)CC3)c(F)cc3c(=O)c(C(=O)O)cn1c23 | 17 strains | - | MIC90 | 25 µg/mL |
| COc1cc2ccnc3c2c(c1OC(=O)c1ccc(C(C)(C)C)cc1)N(C)C=C3 | - | - | EC50 | 0.5 µg/mL |
| CC[C@H]1OC(=O)[C@H](C)[C@@H](O[C@H]2C[C@@](C)(OC)[C@@H](OC(C)=O)[C@H](C)O2)[C@H](C)[C@@H](O[C@@H]2O[C@H](C)C[C@H](N(C)C)[C@H]2O)C(C)(O)C[C@@H](C)/C(=N\OCCCc2ccccc2)[C@H](C)[C@@H](O)[C@]1(C)O | 20066 (clarithromycin-susceptible) | - | MIC | 3.13 µg/mL |
| C/C=C/c1ccc(OC(=O)/C(C)=C/C)cc1 | ATCC 19709 | - | EC50 | 15 µg/mL |
| CC[C@H]1OC(=O)[C@H](C)[C@@H](O[C@H]2C[C@@](C)(OC)[C@@H](O)[C@H](C)O2)[C@H](C)[C@@H](O[C@@H]2O[C@H](C)C[C@H](N(C)C)[C@H]2O)[C@](C)(OC)C[C@@H](C)C(=O)[C@H](C)[C@@H](O)[C@]1(C)O | N-752 (HIV-) | - | MIC | 0.125 µg/mL |
| O/N=C/c1cccc[n+]1Cc1ccc(Br)s1.[Cl-] | - | resazurin | EC50 | >20 µg/mL |
| COc1cc2ccnc3c2c(c1OC(=O)N1CCCC1)N(C)C=C3 | - | - | EC50 | >15 µg/mL |
| CCCCCCO/N=C1\[C@H](C)CC(C)(O)[C@H](O[C@@H]2O[C@H](C)C[C@H](N(C)C)[C@H]2O)[C@@H](C)[C@H](O[C@H]2C[C@@](C)(OC)[C@@H](OC(C)=O)[C@H](C)O2)[C@@H](C)C(=O)O[C@H](CC)[C@@](C)(O)[C@H](O)[C@H]1C | 20066 (clarithromycin-susceptible) | - | MIC | 1.56 µg/mL |
| CO[C@H]1/C=C/O[C@@]2(C)Oc3c(C)c(O)c4c(=O)c(c5oc6cc(N7CCN(CC(C)C)CC7)cc(=O)c6nc5c4c3=C2O)NC(=O)/C(C)=C\C=C\[C@H](C)[C@H](O)[C@@H](C)[C@@H](O)[C@@H](C)[C@H](OC(C)=O)[C@@H]1C | N-499 (HIV-) | - | MIC | ≤0.0125 µg/mL |
| CCCNNC(=O)O[C@H]1[C@H](O[C@@H]2[C@@H](C)[C@H](O[C@H]3C[C@@](C)(OC)[C@@H](OC(C)=O)[C@H](C)O3)[C@@H](C)C(=O)O[C@H](CC)[C@@](C)(O)[C@H](O)[C@@H](C)/C(=N/OCCCC3CCCCC3)[C@H](C)CC2(C)O)O[C@H](C)C[C@@H]1N(C)C | 20066 (clarithromycin-susceptible) | - | MIC | 0.78 µg/mL |
| CC1COc2c(N3CCN(C)CC3)c(F)cc3c(=O)c(C(=O)O)cn1c23 | 17 strains | - | MIC90 | 50 µg/mL |
| CC[C@H]1OC(=O)[C@H](C)[C@@H](OC2C[C@@](C)(OC)[C@@H](O)[C@H](C)O2)[C@H](C)[C@@H](O[C@@H]2O[C@H](C)C[C@H](N(C)C)[C@H]2O)C(C)(O)C[C@@H](C)/C(=N\OCCCCc2ccccc2)[C@H](C)[C@@H](O)[C@]1(C)O | 20066 (clarithromycin-susceptible) | - | MIC | 1.56 µg/mL |
| C[C@@H]1CN(c2c(F)c(N)c3c(=O)c(C(=O)O)cn(C4CC4)c3c2F)C[C@H](C)N1 | N-752 (HIV-) | - | MIC | 0.5 µg/mL |

MIC50, MIC90 and the like: level of inhibition, or share of isolates inhibited. Neighbouring rows are from separate reports. An empty or dashed field is not shown.